This is a selection; strong and weak results do not stand in their true shares. Activity calls are given as the source filed them. Cut-off read from the data, not from the text of the source: active = inhibition above about 30%; inconclusive = no clear call, values can overlap the other calls; inactive = below that.

This test addresses Lethal factor (Bacillus anthracis) (UniProt P15917). The test is described as follows: Bacillus anthracis LF protease inhibitors, primary screen, biochemical, multiplex microsphere, MLPCN library (AID 588501). Note: plate controls were buffer without enzyme for full effect and enzyme alone for no effect. Particulars: multiplex microsphere protease cleavage assay, at 10 µM, hits give high values.
Consider `Cc1ccc(C)c(NP(C)(=O)Oc2ccccc2)c1` (centres undefined), for which the inhibition – broadly, the relative decrease from the control value, in per cent – was inactive: -1.4%.
In the case of `Cc1cc(C)cc(OP(C)(=O)Nc2ccc(C)cc2C)c1` (centres undefined), the inhibition was inactive: -2.4%.
Regarding `CCOC(=O)c1ccc(NP(C)(=O)Oc2cc(C)cc(C)c2)cc1` (centres undefined), the inhibition is inactive: 0.5%.
Turning to `COc1cc(C(=O)NCC2(N3CCOCC3)CCCCC2)cc(Cl)c1OC(C)C`, the inhibition is inactive: -0.4%.
Regarding `COc1ccccc1OP(C)(=O)Nc1cccc(Br)c1` (centres undefined), the inhibition was inactive: 0.7%.
The figure for `Cc1nc2ccc3ccccc3c2s1.O=[N+]([O-])c1cc([N+](=O)[O-])c(O)c([N+](=O)[O-])c1` is inactive: 0.4%; for `O=[N+]([O-])c1cc([N+](=O)[O-])c(-c2cnn(-c3ccccc3)c2)c([N+](=O)[O-])c1` it is inactive: 12.4%; for `CN(Cc1cccnc1)C(=O)COc1ccc(Cl)c(Cl)c1.O=[N+]([O-])c1cc([N+](=O)[O-])c(O)c([N+](=O)[O-])c1` it is inactive: -10.6%.
For the molecule `O=[N+]([O-])c1cc([N+](=O)[O-])c(-n2nnc3ccccc32)c([N+](=O)[O-])c1`, the inhibition was inactive: 2.1%.
For the molecule `CCCOc1ccc(NP(C)(=O)Oc2ccc(Cl)cc2)cc1` (centres undefined), the inhibition was inactive: -4.3%.
For the molecule `CP(=O)(Nc1ccc(SC(F)(F)F)cc1)Oc1ccccc1` (centres undefined), the inhibition is inactive: 2.6%.
The figure for `COc1ccc(-c2ccccn2)cc1.O=[N+]([O-])c1cc([N+](=O)[O-])c(O)c([N+](=O)[O-])c1` is inactive: -9.2%.
Turning to `COc1ccccc1OP(C)(=O)Nc1c(C)cccc1C` (centres undefined), the inhibition is inactive: -4.6%.
As for `CN1CCCCC1COC(=O)C1(O)c2ccccc2CCc2ccccc21` (centres undefined), the inhibition was inactive: -0.9%.
Take `CN(C)C1(CNC(=O)c2ccc(S(C)(=O)=O)cc2)CCCCC1`: the inhibition was inactive: -0.1%.
Regarding `CC1=C2N=C(C=C3N=C(C(C)=C4[N-][C@@](C)([C@@H]5N=C1[C@](C)(CCC(=O)NC[C@@H](C)OP(=O)([O-])O[C@H]1[C@@H](O)[C@@H](n6cnc7cc(C)c(C)cc76)O[C@@H]1CO)[C@H]5CC(N)=O)[C@@](C)(CC(N)=O)[C@@H]4CCC(N)=O)[C@@](C)(CC(N)=O)[C@@H]3CCC(N)=O)C(C)(C)[C@@H]2CCC(N)=O.[C-]#N.[Co+3]`, the inhibition is inactive: -1.3%.
In the case of `O=[N+]([O-])c1cc([N+](=O)[O-])c(Nc2nnnn2CCO)c([N+](=O)[O-])c1`, the inhibition was inactive: -9%.
As to `CCOC(=O)C(CC)C1=NC(C)(C)Cc2ccccc21.O=[N+]([O-])c1cc([N+](=O)[O-])c(O)c([N+](=O)[O-])c1` (centres undefined), the inhibition is inactive: 2.9%.
For `COc1ccccc1OP(C)(=O)Nc1ccccc1` (centres undefined), the inhibition was inactive: -1%.

The values above are taken from PubChem BioAssay AID588501 (NMMLSC, 2011).
